Pooled drug test results. Numbers come from NIAID ChemDB, via PubChem.

All rows: target-level tests; species: HIV-1; target: Protease

Blank or dashed fields: not listed here.

structure,measure,method,conditions,value
CCOC(=O)COc1ccc(-c2cc(O)c(Sc3ccccc3C(C)C)c(=O)o2)cc1,IC50,HPLC,pH 4.7,0.067 µM
O=C(N[C@@H](Cc1ccccc1)C(=O)NCC[C@@H](CO)NC(=O)[C@H](Cc1ccccc1)NC(=O)c1ccccn1)c1ccccn1,IC50,HPLC,-,3.9 µM
CC(C)c1ccccc1Sc1c(O)cc(-c2ccc(OCc3ccc4ccccc4c3)cc2)oc1=O,IC50,HPLC,pH 4.7,>10 µM
CC(C)(CCNS(=O)(=O)c1ccc(F)cc1)CN(C[C@@H](O)[C@H](Cc1ccccc1)NC(=O)O[C@H]1CO[C@H]2OCC[C@H]21)S(=O)(=O)c1ccc2c(c1)OCO2,Ki,fluorescence,-,<0.001 µM
C=CCc1ccc(O)c(-c2ccc(O)c(CC=C)c2)c1,IC50,FRET,-,120 µM
O=C(N[C@@H](Cc1ccccc1)C(=O)NC(CO)NC(=O)[C@H](Cc1ccccc1)NC(=O)OCC1c2ccccc2-c2ccccc21)OCC1c2ccccc2-c2ccccc21,IC50,substrate cleavage,-,0.46 µM
CC(=O)c1ccc(OCC(=O)N[C@@H](Cc2ccccc2)C[C@H](O)[C@H](Cc2ccccc2)NC(=O)COc2ccc(C(C)=O)cc2)cc1,IC50,fluorescence,-,68 µM
CC(C)(C)OC(=O)N[C@@H](Cc1ccccc1)C(=O)NC[C@@H](CO)NC(=O)[C@H](Cc1ccccc1)NC(=O)OC(C)(C)C,IC50,HPLC,-,9.7 µM
O=c1c(OC2O[C@@H](O)[C@H](O)[C@H](O)[C@H]2O)c(-c2ccc(O)cc2)oc2cc(O)cc(O)c12,IC50,HPLC,-,>300 µM
CC(C)(C)OC(=O)N[C@@H](Cc1ccccc1)[C@H](O)CNC[C@@H](O)[C@H](Cc1ccccc1)NC(=O)OC1(C)CCCC1,IC50,HPLC,pH 5.5,<10 µM
CC(C)c1nc(COC(=O)N[C@H](C(=O)N[C@@H](Cc2ccccc2)[C@H](O)CN2CCN(Cc3nc4ccccc4[nH]3)C[C@H]2C(=O)NC(C)(C)C)C(C)C)cs1,IC50,substrate cleavage,-,<0.0005 µM
CC(=O)O[C@@H]1[C@@H](O)C(Oc2c(-c3ccc(O)cc3)oc3cc(OC4O[C@@H](O)[C@H](O)[C@H](O)[C@H]4O)cc(O)c3c2=O)OC(O)[C@@H]1OC(C)=O,IC50,HPLC,-,>300 µM
CC(C)c1ncc(COC(=O)N[C@H](C(=O)N[C@@H](Cc2ccccc2)[C@H](O)CN2C[C@H]3CCCC[C@H]3C[C@H]2C(=O)NC(C)(C)C)C(C)C)s1,IC50,substrate cleavage,-,~0.0005 µM
C=C(C)[C@H]1CC[C@]2(C)[C@H]3CC[C@@H]4[C@@]5(C)C[C@H](OC(C)=O)C[C@@](C)(C(=O)O)[C@@H]5CC[C@@]4(C)[C@]3(C)CC[C@@H]12,IC50,HPLC,-,44.5 µM
COc1ccc(S(=O)(=O)N(CC(C)C)C[C@@H](O)[C@@H]2Cc3ccc(cc3)OCCCC/C=C/CCc3c(O)cccc3C(=O)N2)cc1,Ki,fluorescence,-,0.004 µM
CC(C)[C@@H](NC(=O)c1cc(=O)c2ccccc2[nH]1)C(=O)N[C@@H](Cc1ccccc1)C[C@@H](O)[C@H](Cc1ccccc1)NC(=O)[C@H](NC(=O)c1cc(=O)c2ccccc2[nH]1)C(C)C,IC50,fluorescence,-,0.004 µM
C#CCOC(=O)NCCCCCC(C)(C)CN(C[C@@H](O)[C@H](Cc1ccccc1)NC(=O)O[C@H]1CO[C@H]2OCC[C@H]21)S(=O)(=O)c1ccc2c(c1)OCO2,Ki,fluorescence,-,<0.001 µM
CCCCCc1c(O)cccc1C(=O)N[C@@H](Cc1ccc(O)cc1)[C@H](O)CN(CC(C)C)S(=O)(=O)c1ccc(OC)cc1,Ki,fluorescence,-,0.00041 µM
COc1ccc(CN2CCN(C[C@@H](O)[C@H](Cc3ccccc3)NC(=O)[C@@H](NC(=O)OCc3csc(C)n3)C(C)C)[C@H](C(=O)NC(C)(C)C)C2)cc1OC,IC50,substrate cleavage,-,~0.0005 µM
C=CCc1cc(-c2cc(CC(O)CO)ccc2O)ccc1O,IC50,FRET,-,1000 µM
CC(C)(CCN=C(NC#N)Oc1ccccc1)CN(C[C@@H](O)[C@H](Cc1ccccc1)NC(=O)O[C@H]1CO[C@H]2OCC[C@H]21)S(=O)(=O)c1ccc2c(c1)OCO2,Ki,fluorescence,-,<0.001 µM
O=c1oc(-c2ccc(OCc3ccccn3)cc2)cc(O)c1SCCc1ccccc1,IC50,HPLC,pH 4.7,1.5 µM
CC(C)OC(=O)NCCCCC(C)(C)CN(C[C@@H](O)[C@H](Cc1ccccc1)NC(=O)O[C@H]1CO[C@H]2OCC[C@H]21)S(=O)(=O)c1ccc(N)cc1,Ki,fluorescence,-,<0.001 µM
O=C(N[C@@H](CC1CCCCC1)C(=O)NC(CO)NC(=O)[C@H](CC1CCCCC1)NC(=O)OCc1ccccc1)OCc1ccccc1,IC50,substrate cleavage,-,0.67 µM
CC(C)[C@H](NC(=O)OCc1ccccc1)C(=O)N[C@@H](Cc1ccccc1)[C@H](O)CNC[C@H](O)[C@H](Cc1ccccc1)NC(=O)OC(C)(C)C,IC50,HPLC,pH 5.5,10 µM
O=C(N[C@@H](Cc1ccccc1)[C@H](O)[C@H](O)[C@H](CC1C=CC=CC1)NC(=O)c1ccccc1)c1ccccc1,Ki,substrate cleavage,-,0.04 µM
O=C(NC(CO)NC(=O)[C@H](CC1CCCCC1)NC(=O)OCC1c2ccccc2-c2ccccc21)OCC1c2ccccc2-c2ccccc21,IC50,substrate cleavage,-,>5 µM
CCCNC(=O)NCCCCC(C)(C)CN(C[C@@H](O)[C@H](Cc1ccccc1)NC(=O)O[C@H]1CO[C@H]2OCC[C@H]21)S(=O)(=O)c1ccc2c(c1)OCO2,Ki,fluorescence,-,<0.001 µM
CC(O)[C@H](NC(=O)OCc1ccccc1)C(=O)N[C@@H](Cc1ccccc1)[C@H](O)CNC[C@@H](O)[C@H](Cc1ccccc1)NC(=O)OC(C)(C)C,IC50,HPLC,pH 5.5,<10 µM
COc1ccc(S(=O)(=O)N(C[C@@H](O)[C@H](Cc2ccccc2)NC(=O)O[C@@H]2CO[C@@H]3OCC[C@@H]32)CC(C)(C)CCC#N)cc1,Ki,fluorescence,-,<0.001 µM
CCCC1(CCc2ccccc2)CC(=O)C(C(CC)c2cccc(NS(=O)(=O)c3ccc(C(F)(F)F)cn3)c2)=C(O)C1,Ki,substrate cleavage,-,0.012 µM
O=C(NC(CO)NC(=O)[C@H](Cc1ccccc1)NC(=O)OCc1ccccc1)OCc1ccccc1,IC50,substrate cleavage,-,4.6 µM
CCOC(=O)NCCCC(C)(C)CN(C[C@@H](O)[C@H](Cc1ccccc1)NC(=O)O[C@H]1CO[C@H]2OCC[C@H]21)S(=O)(=O)c1ccc(N)cc1,Ki,fluorescence,-,<0.001 µM
CC(C)(C)CCN[C@@H](Cc1ccccc1)[C@H](O)CNC[C@@H](O)[C@H](Cc1ccccc1)NC(=O)OC(C)(C)C,IC50,HPLC,pH 5.5,>10 µM
C=C(C)[C@H]1CC[C@]2(C)[C@H]3CC[C@@H]4[C@@]5(C)C[C@H](O)C[C@@](C)(C(=O)O)[C@@H]5CC[C@@]4(C)[C@]3(C)CC[C@@H]12,IC50,HPLC,-,10.8 µM
CC(C)(CCCCNS(C)(=O)=O)CN(C[C@@H](O)[C@H](Cc1ccccc1)NC(=O)O[C@H]1CCOC1)S(=O)(=O)c1ccc2c(c1)OCO2,Ki,fluorescence,-,<0.001 µM
O=C(COc1ccccc1)N[C@@H](Cc1ccccc1)C[C@H](O)[C@H](Cc1ccccc1)NC(=O)COc1ccccc1,IC50,fluorescence,-,5 µM
CC(C)(CCCCNC(=O)N1CCCC1)CN(C[C@@H](O)[C@H](Cc1ccccc1)NC(=O)O[C@H]1CO[C@H]2OCC[C@H]21)S(=O)(=O)c1ccc2c(c1)OCO2,Ki,fluorescence,-,<0.001 µM
C=CCc1ccc(O)c(-c2cc(O)ccc2O)c1,IC50,FRET,-,500 µM
CC(C)(C)OC(=O)N[C@@H](Cc1ccccc1)C(=O)NCC[C@@H](CO)NC(=O)[C@H](Cc1ccccc1)NC(=O)OC(C)(C)C,IC50,HPLC,-,4.1 µM
CNc1cccc(S(=O)(=O)N(C[C@@H](O)[C@H](Cc2ccccc2)NC(=O)O[C@H]2CO[C@H]3OCC[C@H]32)CC(C)(C)CCNS(C)(=O)=O)c1,Ki,fluorescence,-,<0.001 µM
CC(C)c1nc(CN(C)C(=O)N[C@H](C(=O)N[C@@H](Cc2ccccc2)[C@H](O)CN2CCN(Cc3cncs3)C[C@H]2C(=O)NC(C)(C)C)C(C)C)cs1,IC50,substrate cleavage,-,<0.0005 µM
Cc1c(O)c(C)c2c(c1O)C(=O)C[C@@H](c1ccccc1)O2,IC50,HPLC,-,105.9 µM
CC(=O)c1ccc(OCC(=O)N[C@@H](Cc2ccccc2)C[C@@H](O)[C@H](Cc2ccccc2)NC(=O)COc2ccc(C(C)=O)cc2)cc1,IC50,fluorescence,-,80 µM
CC(=O)NC(=O)[C@H](Cc1c[nH]c2ccccc12)NC(=O)[C@@H](NC(=O)[C@@H]1CCCN1C[C@@H](O)[C@H](Cc1ccccc1)NC(=O)[C@@H](NC(=O)[C@H](Cc1c[nH]c2ccccc12)NC(C)=O)C(C)C)C(C)C,IC50,fluorescence,-,0.00006 µM
CC(C)(CCCNC(=O)O[C@@H]1CCOC1)CN(C[C@@H](O)[C@H](Cc1ccccc1)NC(=O)O[C@H]1CO[C@H]2OCC[C@H]21)S(=O)(=O)c1ccc2c(c1)OCO2,Ki,fluorescence,-,<0.001 µM
CC(C)c1nc(COC(=O)N[C@H](C(=O)N[C@@H](Cc2ccccc2)[C@H](O)CN2CCN(Cc3ccc4c(c3)OCO4)C[C@H]2C(=O)NC(C)(C)C)C(C)C)cs1,IC50,substrate cleavage,-,<0.0005 µM
CC(C)(CCCCOC(=O)NO)CN(C[C@@H](O)[C@H](Cc1ccccc1)NC(=O)O[C@H]1CO[C@H]2OCC[C@H]21)S(=O)(=O)c1ccc2c(c1)OCO2,Ki,fluorescence,-,<0.001 µM
CC(C)c1ccccc1Sc1c(O)cc(-c2ccc(OCC#N)cc2)oc1=O,IC50,HPLC,pH 4.7,0.091 µM
O=C(N[C@@H](Cc1ccccc1)C(=O)NC[C@@H](CO)NC(=O)[C@H](Cc1ccccc1)NC(=O)OCC1c2ccccc2-c2ccccc21)OCC1c2ccccc2-c2ccccc21,IC50,HPLC,-,0.43 µM
CCOC(=O)NCC(=O)NCCCC(C)(C)CN(C[C@@H](O)[C@H](Cc1ccccc1)NC(=O)O[C@H]1CO[C@H]2OCC[C@H]21)S(=O)(=O)c1ccc2c(c1)OCO2,Ki,fluorescence,-,<0.001 µM
CCc1nc(COC(=O)N[C@H](C(=O)N[C@@H](Cc2ccccc2)[C@H](O)CN2CCN(Cc3ccc(OC)c(OC)c3)C[C@H]2C(=O)NC(C)(C)C)C(C)C)cs1,IC50,substrate cleavage,-,<0.0005 µM
CC(C)(CCCNC(=O)CNS(C)(=O)=O)CN(C[C@@H](O)[C@H](Cc1ccccc1)NC(=O)O[C@H]1CO[C@H]2OCC[C@H]21)S(=O)(=O)c1ccc2c(c1)OCO2,Ki,fluorescence,-,<0.001 µM
Cc1cccc(C)c1OCC(=O)N[C@@H](Cc1ccccc1)C[C@@H](O)[C@H](Cc1ccccc1)NC(=O)[C@H](NC(=O)c1cc(=O)c2ccccc2[nH]1)[C@H](C)O,IC50,fluorescence,-,0.004 µM
COc1ccc(S(=O)(=O)NCCCCC(C)(C)CN(C[C@@H](O)[C@H](Cc2ccccc2)NC(=O)O[C@H]2CO[C@H]3OCC[C@H]32)S(=O)(=O)c2ccc3c(c2)OCO3)cc1,Ki,fluorescence,-,<0.001 µM
CO[C@@H]1CO[C@H]2[C@@H]1OC[C@@H]2OC(=O)N[C@@H](Cc1ccccc1)[C@H](O)CN(CC(C)C)S(=O)(=O)c1ccc(N)cc1,IC50,fluorescence,-,0.00043 µM
CC(C)(CCCCNC(=O)c1ccccc1)CN(C[C@@H](O)[C@H](Cc1ccccc1)NC(=O)O[C@H]1CO[C@H]2OCC[C@H]21)S(=O)(=O)c1ccc2c(c1)OCO2,Ki,fluorescence,-,<0.001 µM
CC(C)c1nc(COC(=O)N[C@H](C(=O)N[C@@H](Cc2ccccc2)[C@H](O)CN2CCN(Cc3cccnc3)C[C@H]2C(=O)NC(C)(C)C)C(C)C)cs1,IC50,substrate cleavage,-,<0.0005 µM
CCCCS(=O)(=O)NCCCCC(C)(C)CN(C[C@@H](O)[C@H](Cc1ccccc1)NC(=O)O[C@H]1CO[C@H]2OCC[C@H]21)S(=O)(=O)c1ccc2c(c1)OCO2,Ki,fluorescence,-,<0.001 µM
CC(C)(C)OC(=O)N[C@@H](Cc1ccccc1)[C@H](O)CNC[C@@H](O)[C@H](Cc1ccccc1)NC(=O)OC1CCc2ccccc21,IC50,HPLC,pH 5.5,<10 µM

A second listing of 6 rows from above:

structure | measure | method | conditions | value
CC(C)[C@@H](NC(=O)c1cc(=O)c2ccccc2[nH]1)C(=O)N[C@@H](Cc1ccccc1)C[C@@H](O)[C@H](Cc1ccccc1)NC(=O)[C@H](NC(=O)c1cc(=O)c2ccccc2[nH]1)C(C)C | IC50 | fluorescence | - | 0.004 µM
C=C(C)[C@H]1CC[C@]2(C)[C@H]3CC[C@@H]4[C@@]5(C)C[C@H](OC(C)=O)C[C@@](C)(C(=O)O)[C@@H]5CC[C@@]4(C)[C@]3(C)CC[C@@H]12 | IC50 | HPLC | - | 44.5 µM
CC(C)(C)OC(=O)N[C@@H](Cc1ccccc1)[C@H](O)CNC[C@@H](O)[C@H](Cc1ccccc1)NC(=O)OC1CCc2ccccc21 | IC50 | HPLC | pH 5.5 | <10 µM
CC(C)(C)OC(=O)N[C@@H](Cc1ccccc1)C(=O)NCC[C@@H](CO)NC(=O)[C@H](Cc1ccccc1)NC(=O)OC(C)(C)C | IC50 | HPLC | - | 4.1 µM
CCCC1(CCc2ccccc2)CC(=O)C(C(CC)c2cccc(NS(=O)(=O)c3ccc(C(F)(F)F)cn3)c2)=C(O)C1 | Ki | substrate cleavage | - | 0.012 µM
O=C(NC(CO)NC(=O)[C@H](Cc1ccccc1)NC(=O)OCc1ccccc1)OCc1ccccc1 | IC50 | substrate cleavage | - | 4.6 µM

Conditions beyond the fields shown may differ between rows. ICn: concentration for n% inhibition.